Source: patent US20120207760A1, “Compositions and Methods for the Therapy and Diagnosis of Influenza” (THERACLONE SCIENCES, published 2012)

B1: TCN-534 (5249_B02) (antibody, V domains shown)
VH: QVQLVQSGAEVKKPGSSVKVSCRESGGTFNGYTITWVRQAPGQGLEWMGGIIPMMGTVNYAQKLQGRVTITTDYFTKTAYMDLNNLRSEDTAMYYCVKIRYTGQQLLWGQGTLVTVSS
VL: DIQMTQSPSTLSASIGDRVTITCRASQSIASWLAWYQQKPGKAPKLLIYEAVNLESGVPSRFSGSGSGTDFTLTISSLQPDDFATYFCQHYGTISQTFGGGTKVEIK
B2: TCN-523 (5248_A17) (antibody, V domains shown)
VH: QVQLVQSGAEVKKPGSSVKVSCKASGGSFSNYAFSWVRQAPGQGLEWMGGTIPLLGTTNYAQKFQGRVTISADQFTSTAYMELGSLRSEDTAVYYCTRRKMTTAFDSWGQGTLVTVSS
VL: QPVLTQPPSASASLGASVTLTCTLSSAYSNYKVDWYQQRPGKGPRFVMRVGTGGIVGSKGDGIPDRFSVLGSGLNRYLTIKNIQEEDESDYHCGADHGSGSNFVSPYVFGGGTKLTVL
B3: TCN-530 (5248_H10a) (antibody, V domains shown)
VH: QVQLVQSGAEVRKPGSSVKVSCKASGGPFMSYAIGWVRQAPGQGLEWMGGINPVFGRPHYAQKFQGRVTIATDDSTKTSYMELSSLTSEDTGMYYCASRYSRSSPGTFESWGQGTLVTVSS
VL: EIVMTQFPATLSVSPGERVTLSCRASQSVSNNLAWYQQKPGQPPRLLIYDASTRATGVPAKFSGTGSGTEFTLSISSLQSEDFAVYYCQQYHNWPPSYSFGLGTKLEIK
B4: TCN-539 (5056_A08) (antibody, V domains shown)
VH: QVQLVESGGGVVQPGRSLRLSCAASEITFITYAMHWVRQAPGKGLEWVALISDDGSNKFYADSVKGRFTISRDNSKNTLYLQMNSLRAEDTAAYYCAREGVYFDSGTYRGYFDYWGQETLVTVSS
VL: EIVLTQSPATLSLSPGERATLSCRASQSVSSYLAWYQQKPGQAPRLLIYDASNRATGIPARFSGSGSGTDFTLTISSLEPEDFAVYYCQQRSHWPPITFGQGTRLEIK
B5: TCN-542 (5079_A16) (antibody, V domains shown)
VH: QVQLQESGPGLVKPSQTLSLTCTVSGGSISSGNYYWNWVRQHPGKGLEWIGYIYYRGSTFYNPSLKSRVTISIDTSKNQFSLRLSSVTAADTAVYYCAKDTRSSLDNYQYGMDVWGQGTTVTVSS
VL: QTVVTQEPSLTVSPGGTVTLTCASSTGAVTSSYFPNWFQQKPGQAPRPLIYSTTIRHSWTPARFSGSLLGGKAALTLSGVQPEDEADYYCLLYSGGDPVAFGGGTKLTVL
B6: TCN-521 (3280_D18) (antibody, V domains shown)
VH: EVQLVQSGGGLVQPGGSLRLACVVSGFTVTSNYITWVRQAPGKGLEWVSVIYSHGRAYYSASVNGRFTISRHTSKNTVYLEMNSLRPEDTAVYYCAGGGLVGGYDEYFFDYWGQGTLATVSS
VL: ETVLTQSPGTLSLTPGERATLSCRVGQSVSGSHLAWYQQKPGQAPRLLIYGASSRATGIPDRFGGSVSGTDFTLTISRLEPEDSAVYYCQQYGDSRYTFGQGTKLEIK
B7: TCN-553 (5261_C18) (antibody, V domains shown)
VH: QVQVVQSGTEVKKPGSSVKVSCQTSGGRFMSYAITWVRQAPGQGLEWMGGIVPVFGTANYAQKFQGRVTITTDDSTRTAYMELSSLRSEDTAVYYCGFRYGSGYGFDSWGQGTLVTVSS
VL: EIVLTQSPGTLSLSPGERATLSCRASQSVSSSYLAWYQKKPGQAPRLLIYGASTRATGIPDRFTGSGSGTDFTLSISRLEPEDFAVYYCQHFGTSVFTFGGGTKVEIK
B8: TCN-543 (5081_G23) (antibody, V domains shown)
VH: QVHLVQSGAEVRKPGDSVKVSCKTSGYTFSTYPVAWVRQVPGQGLEWMGWISTYNGNTNFAQNFQGRVTLTTDTTTNTAYMEVRSLKFDDTAVYYCARVEGSYRDFWNNQNRFDPWGQGTLVTVSS
VL: SYVLTQPPSVSVAPGQTARISCGGSNIGGKSVHWYQQKPGQAPVLVVYDDSGRPSGIPERFSGSNSGDTATLTISRVEAGDEADYFCQVWDNFGGVFGTGTKVTVL
B9: TCN-536 (5095_N01) (antibody, V domains shown)
VH: QVQLQQWGAGLLKPSETLSLTCAVYGGSFSVSGYYWSWIRQPPGRGLEWIGEISHGGSTNYNPSLKSRVTISVDTTKNQFSLRLSSVTAADTAVYYCARGTDPDTEVYCRVGNCAAFDYWGQGSLVTVSS
VL: EIILAQSPGTLSLSPGERATLSCRASQFVSTRSLAWYQQRPGQAPRLLIYGASSRATGIPDRFSGSGSGTDFTLTISRLEPEDFAVYYCQHYGYSPRYAFGQGSKVEIK
B10: TCN-550 (5096_F06) (antibody, V domains shown)
VH: QVQLQESGPGLVKPSETLSLTCTVSGASINSHYWSWIRQPPGKGLEWIGYVYYSGSTTYNPSLKSRVTLSVDTSKNQFSLNLSSVTAADTAFYYCARHPYDVLTGSGDWFDPWGQGTLVTVSS
VL: SYVLTQAPSVSVAPGQTARITCGGNAIGSKKVHWYQHKAGQAPVLVVYDDTDRPSGIPERFSGSNSWSTATLTINRVEAGDEADYYCQVWDFTIDHVVFGGGTKLTVL
B11: TCN-538 (3206_O17) (antibody, V domains shown)
VH: QITLKESGPTLVKPTQTLTLTCVFSGFSLSITGVRVGWIRQPPGKALEWLALISWDDEKHYSPSLQSRLTITKDTSKNQVVLTMTNLDPVDTATYYCARSTDRGHVLRYFGWMLPGDAFDVWGQGTMVTVSS
VL: DIVMTQSPDFLPVSLGERATINCKSSQRVLYSSNNKNYLAWYQLKPGQPPKLIIYWASTRESGVPDRFSGSGSGTEFTLTISSLQAEDVAVYYCQQYYSRPYTFGQGTKLEIK
B12: TCN-538 (3206_O17) (antibody, V domains shown)
VH: B11 VH
VL: B11 VL
B13: TCN-555 (5246_L16) (antibody, V domains shown)
VH: QVQLVQSGAEVKRPGSSVKVSCTASGGIFRKNAISWVRQAPGQGLEWMGGIIAVFNTANYAQKFQNRVKITADESGNTAYMELSSLTSDDTAVYYCASHPKYFYGSGSYPDFWGQGTLVTVSS
VL: QSALTQPRSVSGSPGQSITISCTGGSSDIGASNSVSWYQQHPGKAPKLVIFDVTERPSGVPHRFSGSKSGNTASLTVSGLQPDDEADYFCCAYGGKYLVVFGGGTKVTVL

Assays:
[1] = molecular target: recombinant soluble homotrimeric HA of A/Wisconsin/67/05 (H3N2) (Influenza A virus A/Wisconsin/67/05 …)
[2] = molecular target: recombinant soluble homotrimeric HA of A/chicken/Vietnam/NCVD-016/08 (H5N1) (Influenza A virus …); test: microarray, BCC supernatant IgG, trimeric HA
[3] = molecular target: recombinant soluble homotrimeric HA of A/Solomon Islands/3/06 (H1N1) (Influenza A virus A/Solomon …); test: microarray, BCC supernatant IgG, trimeric HA
[4] = molecular target: recombinant soluble homotrimeric HA of A/duck/Yangzhou/02/05 (H8N4) (Influenza A virus …); test: microarray, BCC supernatant IgG, trimeric HA
[5] = molecular target: recombinant soluble homotrimeric HA of A/California/4/09 (H1N1) (Influenza A virus A/California/4/09 …); test: microarray, BCC supernatant IgG, trimeric HA
[6] = molecular target: recombinant soluble homotrimeric HA of A/northern shoveler/California/HKWF115/07 (Influenza A virus A/northern …); test: microarray, BCC supernatant IgG, trimeric HA
[7] = molecular target: recombinant soluble homotrimeric HA of A/Hong Kong/2108/03 (H9N2) (Influenza A virus A/Hong Kong/2108/03 …); test: microarray, BCC supernatant IgG, trimeric HA
[8] = molecular target: recombinant soluble homotrimeric HA of A/Egypt/3300-NAMRU3/08 (H5N1) (Influenza A virus …); test: microarray, BCC supernatant IgG, trimeric HA
[9] = molecular target: recombinant soluble homotrimeric HA of A/swine/Ontario/01911-2/99 (H4N6) (Influenza A virus …); test: microarray, BCC supernatant IgG, trimeric HA
[10] = molecular target: recombinant soluble homotrimeric HA of A/chicken/Vietnam/NCVD-016/08 - H5N1 (Influenza A virus …); test: micro-array; captured IgG, V5-tagged trimeric HA
[11] = molecular target: recombinant soluble homotrimeric HA of A/northern shoveler/California/HKWF115/2007 - H6N1 (Influenza A virus A/northern …); test: micro-array; captured IgG, V5-tagged trimeric HA
[12] = molecular target: recombinant soluble homotrimeric HA of A/duck/Yangzhou/02/2005 - H8N4 (Influenza A virus …); test: micro-array; captured IgG, V5-tagged trimeric HA
[13] = molecular target: recombinant soluble homotrimeric HA of A/Egypt/3300-NAMRU3/08 - H5N1 (Influenza A virus …); test: micro-array; captured IgG, V5-tagged trimeric HA
[14] = molecular target: recombinant soluble homotrimeric HA of A/Hong Kong/156/97 - H5N1 (Influenza A virus A/Hong Kong/156/97 …); test: micro-array; captured IgG, V5-tagged trimeric HA
[15] = molecular target: recombinant soluble homotrimeric HA of A/Netherlands/219/03 (H7N7) (Influenza A virus A/Netherlands/219/03 …)

Binder	Trimeric HA Binding: RLU [1]	Trimeric HA Binding: RLU [2]	Trimeric HA Binding: RLU [3]	Trimeric HA Binding: RLU [5]	Trimeric HA Binding: RLU [6]	Trimeric HA Binding: RLU [7]	Trimeric HA Binding: RLU [8]	Trimeric HA Binding: RLU [10]	Trimeric HA Binding: RLU [11]	Trimeric HA Binding: RLU [13]	Trimeric HA Binding: RLU [14]	other results
B1	7980 RLU	56600 RLU	44200 RLU	30100 RLU	52400 RLU	165 RLU	41400 RLU					Trimeric HA Binding: RLU [4]: 46500 RLU
B2			37900 RLU			189 RLU						
B3	36800 RLU	48300 RLU	32800 RLU	46600 RLU	45300 RLU	486 RLU	30400 RLU					
B4	715 RLU	100 RLU	239 RLU		814 RLU		11400 RLU					Trimeric HA Binding: RLU [9]: 1580 RLU
B5								5460 RLU	2370 RLU	14800 RLU	786 RLU	Trimeric HA Binding: RLU [12]: 11600 RLU
B6			39600 RLU			93 RLU						
B7								34700 RLU	32500 RLU	19500 RLU	36300 RLU	Trimeric HA Binding: RLU [12]: 12500 RLU
B8	1360 RLU		511 RLU	13100 RLU								Trimeric HA Binding: RLU [15]: 661 RLU
B9	35000 RLU	287 RLU		151 RLU								Trimeric HA Binding: RLU [9]: 79 RLU
B10								1800 RLU	2300 RLU		955 RLU	Trimeric HA Binding: RLU [12]: 4710 RLU
B11									8900 RLU	41000 RLU		
B12	6900 RLU	37300 RLU	33200 RLU	13800 RLU	17400 RLU	109 RLU	23600 RLU					Trimeric HA Binding: RLU [4]: 6120 RLU
B13								35200 RLU	28700 RLU	20000 RLU	36300 RLU	
